According to article PMC10434283, “A Novel Two-Component Bacteriocin, Acidicin P, and Its Key Residues for Inhibiting Listeria monocytogenes by Targeting the Cell Membrane” (Microbiology Spectrum, 2023):

Experiment: Circular dichroism (CD) spectroscopy, secondary structure
Format: physicochemical
Details: peptide 0.2 mg/mL; for calculated helicity: CD at 50% TFE; for CD spectrum, conformation: aqueous solution

Row | Sequence | calculated helicity [%] | CD spectrum, conformation
1 | KKKRGFWYHVGDAVTSFGRGFASAFG [Adpβ, 26-residue mature β peptide of the two-component bacteriocin acidicin P, obtained by solid-phase peptide synthesis] | 16.5 | nonstructured conformations
2 | RNKMAYNVGKAISRIMRRVR [Adpα, 20-residue mature α peptide of the two-component bacteriocin acidicin P, obtained by solid-phase peptide synthesis] | 24.9 | nonstructured conformations
